From publication PMC9180926, “Discovery of Novel 3-Hydroxyquinazoline-2,4(1H,3H)-Dione Derivatives: A Series of Metal Ion Chelators with Potent Anti-HCV Activities” (International Journal of Molecular Sciences, 2022)
Where “and” joins values, the source holds several entries; their conditions need not be identical. Equal entries are not always repeated.

Test system: HCV 1b replicon cells (Huh-7.5.1)
Assay: Anti-HCV assay, HCV 1b replicon cells with luciferase reporter
Assay type: cell-based, hepatitis C virus (HCV) subtype 1b
Conditions: calculated as CC50/EC50
Method: The HCV replicons were validated as convenient and effective models for testing the anti-HCV activity. Since HCV subtype 1b is one of the major subtypes worldwide, especially in China, the replicon model from the Huh-7.5.1 cell line integrating HCV 1b genome encoding the nonstructural proteins was chosen to evaluate the anti-HCV activities of 3-hydroxyquinazoline-2,4(1H,3H)-diones. The inhibitory rates of the compounds on HCV replicon cells were determined at concentrations of 25 μM and 10 μM, respectively. The broad-spectrum antiviral drug ribavirin (RBV) and the NS5B nucleoside inhibitor 2′-C-methyladenosine (2CMA) were selected as positive controls. The cytotoxicity of these compounds on replicon cells was determined using the cell counting kit-8 (CCK-8) assay.
HCV 1b replicon cells (Huh-7.5.1) containing luciferase reporter gene were kindly provided by Prof. Zhenghong Yuan (Key Laboratory of Medical Molecular Virology, Fudan University, Shanghai, China). The replicon cells were plated at 1.5 × 10^4 cells per well in a 48-well plate (Corning Inc., New York, NY, USA) at 5% CO2/37 °C. The culture medium was Dulbecco’s Modified Eagle Medium (DMEM, pH 7.3, Shanghai XP Biomed Ltd., Shanghai, China) containing 10% fetal bovine serum (Shanghai XP Biomed Ltd., Shanghai, China), 10^5 U/L penicillin, 0.1 g/L streptomycin, and 0.5 μg/mL blasticidin. After 12 h, the culture medium in each well was replaced with 300 μL of pre-prepared fresh culture medium containing test compound (dissolved in DMSO with specific concentration) or blank DMSO. The final concentration of DMSO in the culture medium in the plate was 0.1%. Each group was tested at least twice in parallel. Ribavirin and 2CMA were used as the positive controls. After incubating the drug-added plate at 5% CO2/37 °C for 72 h, the medium was removed, and each well was washed with 300 μL of phosphate buffer solution (PBS, Shanghai XP Biomed Ltd., Shanghai, China). The cells in each well were then lysed with 50 μL of 1× lysis buffer (E2820, Promega, Madison, WI, USA). Subsequently, 50 μL of 1× luciferase assay substrate (E2820, Promega, Madison, WI, USA) was mixed with 20 μL of the harvested cell lysates.
The inhibitory rates under at least six different concentration gradients were imported into GraphPad Prism 7.0 software to calculate the anti-HCV EC50 values of the compounds using the nonlinear fitting method.

## C[C@@]1(O)[C@H](O)[C@@H](CO)O[C@H]1n1cnc2c(N)ncnc21 [2CMA, 2′-C-methyladenosine, reference compound]
  TI (therapeutic index): >27

## O=c1c2ccccc2n(CCc2ccc(F)cc2)c(=O)n1O [10d, 1-(4-Fluorophenethyl)-3-hydroxyquinazoline-2,4(1H,3H)-dione]
  TI (therapeutic index): 1.7

## O=C(Cn1c(=O)n(O)c(=O)c2ccccc21)c1ccccc1 [10e, 3-Hydroxy-1-(2-oxo-2-phenylethyl)quinazoline-2,4(1H,3H)-dione]
  TI (therapeutic index): 1.2

## N#Cc1ccc(NC(=O)Cn2c(=O)n(O)c(=O)c3ccccc32)cc1 [10n, N-(4-Cyanophenyl)-2-(3-hydroxy-2,4-dioxo-3,4-dihydroquinazolin-1(2H)-yl)acetamide]
  TI (therapeutic index): 1.7

## O=C(Cn1c(=O)n(O)c(=O)c2ccccc21)Nc1ccc(C(F)(F)F)cc1 [10p, 2-(3-Hydroxy-2,4-dioxo-3,4-dihydroquinazolin-1(2H)-yl)-N-(4-(trifluoromethyl)phenyl)acetamide]
  TI (therapeutic index): 1.9

## O=c1[nH]c2ccc(-c3ccccc3)cc2c(=O)n1O [21a, 3-Hydroxy-6-phenylquinazoline-2,4(1H,3H)-dione]
  TI (therapeutic index): 1.3

## O=c1[nH]c2ccc(-c3ccc(F)cc3)cc2c(=O)n1O [21b, 6-(4-Fluorophenyl)-3-hydroxyquinazoline-2,4(1H,3H)-dione]
  TI (therapeutic index): 1.3

## COc1ccc(-c2ccc3[nH]c(=O)n(O)c(=O)c3c2)cc1 [21c, 3-Hydroxy-6-(4-methoxyphenyl)quinazoline-2,4(1H,3H)-dione]
  TI (therapeutic index): 2.1

## O=c1[nH]c2ccc(-c3cccc([N+](=O)[O-])c3)cc2c(=O)n1O [21d, 3-Hydroxy-6-(3-nitrophenyl)quinazoline-2,4(1H,3H)-dione]
  TI (therapeutic index): 1.4

## O=c1[nH]c2cc(-c3ccccc3)ccc2c(=O)n1O [21e, 3-Hydroxy-7-phenylquinazoline-2,4(1H,3H)-dione]
  TI (therapeutic index): 1.7

## O=c1[nH]c2cc(-c3ccc(F)cc3)ccc2c(=O)n1O [21f, 7-(4-Fluorophenyl)-3-hydroxyquinazoline-2,4(1H,3H)-dione]
  TI (therapeutic index): 1.3

## Nc1ccccc1-c1ccc2c(=O)n(O)c(=O)[nH]c2c1 [21g, 7-(2-Aminophenyl)-3-hydroxyquinazoline-2,4(1H,3H)-dione]
  TI (therapeutic index): 1.1–1.8 and 1.8

## O=c1[nH]c2cc(-c3ccc(C(F)(F)F)cc3)ccc2c(=O)n1O [21h, 3-Hydroxy-7-(4-(trifluoromethyl)phenyl)quinazoline-2,4(1H,3H)-dione]
  TI (therapeutic index): > 5.2

## COc1ccc(-c2ccc3c(=O)n(O)c(=O)[nH]c3c2)cc1 [21i, 3-Hydroxy-7-(4-methoxyphenyl)quinazoline-2,4(1H,3H)-dione]
  TI (therapeutic index): 1.1–1.8 and 1.6

## Nc1cccc(-c2ccc3c(=O)n(O)c(=O)[nH]c3c2)c1 [21j, 7-(3-Aminophenyl)-3-hydroxyquinazoline-2,4(1H,3H)-dione]
  TI (therapeutic index): 1.1–1.8 and 1.8

## O=c1[nH]c2cc(-c3cccc([N+](=O)[O-])c3)ccc2c(=O)n1O [21k, 3-Hydroxy-7-(3-nitrophenyl)quinazoline-2,4(1H,3H)-dione]
  TI (therapeutic index): 11.7

## O=c1[nH]c2cc(-c3ccc(F)c(Cl)c3)ccc2c(=O)n1O [21l, 7-(3-Chloro-4-fluorophenyl)-3-hydroxyquinazoline-2,4(1H,3H)-dione]
  TI (therapeutic index): 5.2

## O=c1[nH]c2cc(-c3ccc(F)cc3F)ccc2c(=O)n1O [21n, 7-(2,4-Difluorophenyl)-3-hydroxyquinazoline-2,4(1H,3H)-dione]
  TI (therapeutic index): 2.9

## COc1ccc(-c2ccc3c(=O)n(O)c(=O)[nH]c3c2)cc1F [21o, 7-(3-Fluoro-4-methoxyphenyl)-3-hydroxyquinazoline-2,4(1H,3H)-dione]
  TI (therapeutic index): 1.1–1.8 and 1.1

## Cc1ccc(F)cc1-c1ccc2c(=O)n(O)c(=O)[nH]c2c1 [21p, 7-(5-Fluoro-2-methylphenyl)-3-hydroxyquinazoline-2,4(1H,3H)-dione]
  TI (therapeutic index): 1.4

## O=c1[nH]c2cc(-c3ccco3)ccc2c(=O)n1O [21s, 7-(Furan-2-yl)-3-hydroxyquinazoline-2,4(1H,3H)-dione]
  TI (therapeutic index): 4.1

## O=c1[nH]c2cc(-c3cc4ccccc4o3)ccc2c(=O)n1O [21t, 7-(Benzofuran-2-yl)-3-hydroxyquinazoline-2,4(1H,3H)-dione]
  TI (therapeutic index): > 25

## Cn1c(=O)n(O)c(=O)c2cc(-c3cccc([N+](=O)[O-])c3)ccc21 [23a, 3-Hydroxy-1-methyl-6-(3-nitrophenyl)quinazoline-2,4(1H,3H)-dione]
  TI (therapeutic index): 2.3

## Cn1c(=O)n(O)c(=O)c2ccc(-c3ccccc3)cc21 [23b, 3-Hydroxy-1-methyl-7-phenylquinazoline-2,4(1H,3H)-dione]
  TI (therapeutic index): 1.7

## Cn1c(=O)n(O)c(=O)c2ccc(-c3ccc(F)cc3)cc21 [23c, 7-(4-Fluorophenyl)-3-hydroxy-1-methylquinazoline-2,4(1H,3H)-dione]
  TI (therapeutic index): 1.8

## COc1ccc(-c2ccc3c(=O)n(O)c(=O)n(C)c3c2)cc1 [23d, 3-Hydroxy-7-(4-methoxyphenyl)-1-methylquinazoline-2,4(1H,3H)-dione]
  TI (therapeutic index): 2.8

## CCn1c(=O)n(O)c(=O)c2ccc(-c3ccccc3)cc21 [23e, 1-Ethyl-3-hydroxy-7-phenylquinazoline-2,4(1H,3H)-dione]
  TI (therapeutic index): 1.5

## O=C(Cn1c(=O)n(O)c(=O)c2ccc(-c3ccco3)cc21)Nc1ccccc1Cl [23j, N-(2-Chlorophenyl)-2-(7-(furan-2-yl)-3-hydroxy-2,4-dioxo-3,4-dihydroquinazolin-1(2H)-yl)acetamide]
  TI (therapeutic index): 2.3

## NC(=O)c1ncn([C@@H]2O[C@H](CO)[C@@H](O)[C@H]2O)n1 [RBV, ribavirin, reference compound]
  TI (therapeutic index): 2.3

## O=c1[nH]c2cc(Br)ccc2c(=O)n1O [compound 19, 7-Bromo-3-hydroxyquinazoline-2,4(1H,3H)-dione]
  TI (therapeutic index): 2.0
